Measurements reported in the supplement of paper PMC9931576.
Human monoclonal antibodies against the spike receptor-binding domain (heavy:light variable regions). IC50 against pseudoviruses bearing the spike of naturally observed variants; lower = stronger; >10 µg/ml means not reached at the top dose. No active / inactive call. The stated detection limit is 0.0005 µg/ml; values near or below 0.001 µg/ml lie at the floor of the assay.

B1: BD56-1457 (protein)
chain 1: EVQLVESGGGLVQPGRSLRLSCAASGFNFDDYAMHWVRQAPGKGLEWVSGSSWNSATIDYADSVKGRFIISRDNAKNSLFLQMNSLRTEDTAFYYCAKGLNPYYLDTSGYYNDLDAFDVWGLGTMVTVSS
chain 2: EIVLTQSPGTLSLSPGERATLSCRASQSVSSSYFAWYQQKPGQAPRLLIYGASTRATGIPDRFSGSGSGTDFTLTISRLEPEDFAVYYCQQYGSSLLTFGGGTKVEIK
B2: BD56-1459 (protein)
chain 1: EVQLVESGGGLVKPGGSLRLSCVASGFTFSGYSMNWVRQAPGQGLEWVSSMGSSSSYISYADSVRGRFTISRDNARNSLYLQMNSLRAEDTAIYYCARDVSVIYCSDGSCYFDYWGQGTLVTVSS
chain 2: EIVLTQSPGTLSLSPGERATLSCRASQSVRSSYLAWYQQKPGQAPRLLIYDASSRATGIPDRFSGSGSGTDFTLTISRVEPEDFAVYYCQQYGASPGTLGQGTKVEIK
B3: BD56-1460 (protein)
chain 1: QVQLVQSGGEVKKPGASVKVSCKASGYSFTSFGFSWVRQAPGQGLEWVGWISASNGNTNYAQTLQGRVTLTTDTSTKTAYMELRSLRSDDTAVYYCARVFGIYDYIWGNYPYPPYFDFWGQGTLVTVSS
chain 2: SYELTQPPSVSVSPGQTASITCSGDKLGDKFACWYQQKPGQSPVLVIYQDGKRPSGIPERVSGSNSGNTVTLTISGTQAMDEADYYCLAWDSSTVIFGGGTKLTVL
B4: BD56-1462 (protein)
chain 1: VHLVESGGGVVQPGRSLRLSCAASGFTFTSHAMHWVRQAPGKGLEWVAVTSYDGNYKYYSDSVKGRFTISRDNSKSTLYLQMNSLRAEDTAVYYCARAALEYCANGVCYFEYWGQGTLVTVSS
chain 2: NFMLTQSHSVSESPGKTVTISCTGSGGTIASNYVQWYQQRPGSAPTTVIYEDNQRPSGVPERFSGSIDSSSNSASLTISGLKTEDEAVYYCQSYDVNNLWVFGGGTTLTVL
B5: BD56-1466 (protein)
chain 1: QVQLVQSGAEVKKPGASVKVSCKASGYTFTSYYMHWVRQAPGQGLEWLGIINPTGGSTRYAQKFQGRVTMTRDTSTTTVYMELSSLRSEDTAVYYCARSMYTTSSEGNYYYYYMDVWGKGTTVTVSS
chain 2: QSALTQPASVSGSPGQSITISCTGTTSDVGGYNYVSWYQQHPGKVPKLMIYDVSKRPSGVSNRFSGSKSGKTASLTISGLQAEDEADYYCSSYTSSSIHAVFGGGTKLTVL
B6: BD56-1467 (protein)
chain 1: QLQLQESGPGLVKPSETLSLTCTVSGGSIGSRSYYWGWIRQSPGKGLEWIGNIYYNGNTYYNPSLKSRVTISLDTSRNQFSLKLNSVTAADTAVYYCARVGGEGDYFDYWGQGTLVTVSS
chain 2: DIQMTQSPSTLSASVGDRVTITCRASQSISTWLAWYQQKPGKAPKLLIYKASLLESVLPSRFSGSGSGTEFTLTISSLQPDDFATYYCQQYNSYRTFGQGTKVEIK
B7: BD56-1470 (protein)
chain 1: QVQLQESGPGLVRPSETLSLTCSVSGGSLSHYYWTWIRQPPGKGLEWIGYMFHSGSTNYNPSLRSRVTISADTSKNQFSLKLKSVTAADTAMYFCAKDRGESSGWPDALDIWGQGTMVTVSS
chain 2: DIQMTQSPSSLSASVGDRVTITCQASQDISNYLNWYQQKPGKAPKLLIYDASNLEPGVPSRFSGSGSGTDFTFTISSLQPEDIATYYCQQYHNLPWTFGQGTKVEVK
B8: BD56-1472 (protein)
chain 1: QVQLVQSAAEVKKPGSSVKVSCKASGGTFSSYTVSWMRQAPGQGLEWIGRIISVHAIVNYEQKFQGRVTITADTSTSTAFMELSSLRSEDTAVYYCASRNFDVLTGYESGHFDSWGQGTPVTVSS
chain 2: EIVMTQSPATLSVSPGERATLSCRASQSVSSNLAWYQQKPGQAPRLLIFDASTRATGIPVRFSGSGSGTEFTLTISSLQSGDFAVYYCQQYSKWPSFGGGTKVEIK
B9: BD56-1475 (protein)
chain 1: EVQLVESGGGLVQPGGSLRLSCAVSGFTVSSNYMSWVRQAPGKGLEWVSVIYPGGSTFYADSVKGRFTISRHNSKNTLYLQMNSLRLEDTAIYYCARDPYSRPVSWGQGTLVTVSS
chain 2: DIQMTQSPSSLSASVGDRVTITCQASQDIRNYLNWYQQKPGKAPKVLIYDASNLETGVPSRFSGSGSGTDFTFTISSLQPEDIATYYCQQYDNLPITFGQGTRLEIK
B10: BD56-1478 (protein)
chain 1: QVHLQESGPGLVRPSETLSLTCSVSGGSISHYYWSWIRQSPGKGLEWIGYVFHSGSTNYNPSLRSRVTISVDTSKNQFSLKLRSVTAADTALYYCARDRGHSSGWPDALDIWGQGTMVTVSS
chain 2: DIQMTQSPPSLSASVGDRVTITCQASQDITNYLNWYQQKPGKAPKLLIYDVSNLETGVPSRFSGRGSGTDFTFTISSLQPEDIATYYCQQYDNVPWTFGQGTKVEIK
B11: BD56-1481 (protein)
chain 1: QVQLVQSGAEVKKPGSSVRVSCKASGGTFSNYAISWVRQAPGQGLEWMGRIIPMFGISNYAQKFQGKVIFTADKSTSTAYMELSSLRSEDTAIYYCARGSYYSDTSGYFLDHWGQGTLVTVSA
chain 2: EIVLTQSPGTLSLSPGERATLSCRASQSVGGSYLAWYQQKPGQAPSLLIYGASNRATGVPDRFSGSGSGTDFTLTISRLEPEDFAVYYCHQYAGAPRTFGQGTKVEIK
B12: BD56-1515 (protein)
chain 1: EVQVVESGGGLVKPGGSLRLSCAASGFTLSSYTMNWVRQAPGKGLEWVSSISGTSTHIFYSDSVKGRFTISRDNTKNSLFLQMNSLRVDDTAVYYCARDSEWGGDIVTGSSHLFDSWGQGTLVTVSS
chain 2: DIQMTQSPASLSAPVRGRVTITCRAGQTIGTSLNWYQQKPGKAPKLLIYAAFNLHSGVPSRFSGSGSGTHFTLTISSLQPEDFATYYCQQSYSAPPTFGGGTKVEIK

target: SARS-CoV-2 Omicron BA.1 spike pseudovirus; assay: pseudovirus neutralization IC50; higher = weaker neutralization
Procedure: (§1)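 Single-round VSV luciferase pseudovirus mixed with antibody dilutions for 1 h and put on Huh-7 cells for about a day; IC50 from the dose curve.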

Binder	pseudovirus neutralization IC50 [µg/mL]
B1	0.0616
B2	0.00925
B3	> 10
B4	> 10
B5	> 10
B6	> 10
B7	0.277
B8	0.059
B9	0.0999
B10	0.162
B11	> 10
B12	> 10

target: SARS-CoV-2 Omicron BA.2 spike pseudovirus; assay: as above
Procedure: as §1

Binder	pseudovirus neutralization IC50 [µg/mL]
B1	0.0528
B2	0.00603
B3	> 10
B4	> 10
B5	> 10
B6	> 10
B7	0.361
B8	0.0636
B9	0.146
B10	0.211
B11	> 10
B12	> 10

target: SARS-CoV-2 Omicron BA.2.75 spike pseudovirus; assay: as above
Procedure: as §1

Binder	pseudovirus neutralization IC50 [µg/mL]
B1	0.0765
B2	0.0056
B3	> 10
B4	> 10
B5	> 10
B6	> 10
B7	0.369
B8	0.0702
B9	> 10
B10	0.148
B11	> 10
B12	> 10

target: SARS-CoV-2 Omicron BA.5 spike pseudovirus; assay: as above
Procedure: as §1

Binder	pseudovirus neutralization IC50 [µg/mL]
B1	0.0558
B2	> 10
B3	> 10
B4	> 10
B5	> 10
B6	> 10
B7	0.881
B8	> 10
B9	> 10
B10	2.44
B11	> 10
B12	> 10

target: SARS-CoV-2 Omicron BQ.1.1 spike pseudovirus; assay: as above
Procedure: as §1

Binder	pseudovirus neutralization IC50 [µg/mL]
B1	> 10
B2	> 10
B3	> 10
B4	> 10
B5	> 10
B6	> 10
B7	> 10
B8	> 10
B9	> 10
B10	1.75
B11	> 10
B12	> 10

target: SARS-CoV-2 Omicron XBB spike pseudovirus; assay: as above
Procedure: as §1

Binder	pseudovirus neutralization IC50 [µg/mL]
B1	2.65
B2	> 10
B3	> 10
B4	> 10
B5	> 10
B6	> 10
B7	1.8
B8	> 10
B9	> 10
B10	1.96
B11	> 10
B12	> 10

target: SARS-CoV-2 early D614G spike pseudovirus; assay: as above
Procedure: as §1

Binder	pseudovirus neutralization IC50 [µg/mL]
B1	0.048
B2	0.00158
B3	0.253
B4	0.395
B5	0.00402
B6	0.44
B7	0.00836
B8	0.00115
B9	0.0104
B10	0.0108
B11	0.00265
B12	> 10
